Anti-infective test results gathered from many reports (values: NIAID ChemDB through PubChem).

All rows: tests on isolated targets; species: HIV-1; protein: Reverse transcriptase

ICn: concentration for n% inhibition. An empty or dashed field is not shown. Two numbers with a dash give a range or band. Neighbouring rows are from separate reports. Fold resistance has wild type as its base.

SMILES | strain | changes | method | endpoint | result
CCc1cc(NCc2nc3c(C)ccc(C)c3o2)c(=O)[nH]c1C |  | RT-K103N | nucleotide incorporation | fold resistance | 17.7
Cc1cc(C)cc(S(=O)(=O)c2c(C(=O)NCCn3cccc3)[nH]c3ccc(Cl)c(F)c23)c1 |  | WT | RT activity / nucleotide incorporation | Ki | 0.018 µM
CCN1c2ncc(CCOc3ccc(-c4cccc(CC(=O)O)c4)cc3)cc2C(=O)N(C)c2cccnc21 | IIIB | RT-K103N Y181C | nucleotide incorporation / radiometric | fold resistance | >2
C=Cc1cc(N(C)C)nc(SCc2ccc(OC)cc2)n1 |  | RT-K103N | nucleotide incorporation / radiometric | Ki | >400 µM
C#Cc1ccc(NC(=O)CSc2nnnn2-c2ccc(C(C)(C)C)cc2Cl)c(Cl)c1 | WT |  | PicoGreen / fluorescence | IC50 | <1 µM
CCN1c2ncc(CCOc3ccc(CC(=O)O)c4ccccc34)cc2C(=O)N(C)c2ccc(C)nc21 | WT |  | nucleotide incorporation / radiometric | IC50 | <0.1 µM
CC(=O)NNC(=O)COC(C)(C)C#Cc1ccc(NC(=O)CSc2nnnn2-c2ccc(C(C)(C)C)cc2Cl)c(Cl)c1 |  | RT-K103 Y181C | PicoGreen / fluorescence | IC50 | <1 µM
COC(=O)NCCCCNc1nc(Cc2ccccc2)c(C)c(=O)[nH]1 |  | RT-Y188L |  | Ki | >1000 µM
C=Cc1cc(N(C)C)nc(S(C)(=O)=O)n1 |  | RT-K103N | nucleotide incorporation / radiometric | Ki | 3.2 µM
CCN1c2ncc(CCOc3ccc(NC(=O)CC(C)(C)C(=O)O)cc3C)cc2C(=O)N(C)c2cccnc21 | IIIB | RT-K103N Y181C | nucleotide incorporation / radiometric | fold resistance | >2
CC(C)(C#Cc1ccc(NC(=O)CSc2nnnn2-c2ccc(C(C)(C)C)cc2Cl)c(Cl)c1F)C(=O)O | WT |  | PicoGreen / fluorescence | IC50 | <1 µM
CCN1c2ncc(CCOc3cccc4c3ccc[n+]4[O-])cc2C(=O)Nc2c(C)cc(Cl)nc21 |  | RT-Y181C | nucleotide incorporation / radiometric | fold resistance | 1.8
COc1ccc2c(c1)CN(c1nn3c(C(C)C)nnc3c3ccccc13)CC2 | KER2008 |  | RT activity / fluorescence | IC90 | 53.7 µM
O=c1cc(Cc2ccccc2)nc(SCCCCO)[nH]1 |  | RT-Y181I |  | Ki | 516 µM
CC(C)(O)C#Cc1ccc(NC(=O)CSc2nnnn2-c2cc(C#N)ccc2Cl)c(Cl)c1 | WT |  | PicoGreen / fluorescence | IC50 | <1 µM
c1coc(-c2nnc3c4ccccc4c(N4CCc5ccccc5C4)nn23)c1 | 98US_MSC5016 |  | RT activity / fluorescence | IC90 | 1.55 µM
CC(C)(C#Cc1ccc(NC(=O)CSc2nnnn2-c2ccc(C3CC3)cc2Cl)c(Cl)c1)COC(N)=O | WT |  | PicoGreen / fluorescence | IC50 | <1 µM
CCN1c2ncc(CCOc3ccc(CCC(=O)O)c4ccccc34)cc2C(=O)Nc2c(C)cc(Cl)nc21 |  | RT-K103N Y181C | nucleotide incorporation / radiometric | IC50 | 0.1–1 µM
CC(C)c1nnc2c3ccccc3c(N3CCc4ccc(NS(C)(=O)=O)cc4C3)nn12 | KER2008 |  | RT activity / fluorescence | IC90 | 2.48 µM
CCN1c2ncc(CCOc3ccc(C(=O)O)c4ccccc34)cc2C(=O)N(C)c2ccc(F)nc21 |  | RT-V106A | nucleotide incorporation / radiometric | fold resistance | >10
CC(C)(C#Cc1ccc(NC(=O)CSc2nnnn2-c2ccc(C(C)(C)C)cc2Cl)c(Cl)c1)OCC(N)=O | WT |  | PicoGreen / fluorescence | IC50 | <1 µM
CCN1c2ncc(CCOc3ccc(CCC(=O)O)c4c3CCCC4)cc2C(=O)N(C)c2ccc(Cl)nc21 |  | RT-K103N Y181C | nucleotide incorporation / radiometric | fold resistance | 1–10
CC(C)(C#Cc1ccc(NC(=O)CSc2nnnn2-c2ccc(C3CC3)cc2Cl)c(Cl)c1F)OCCO[n+]1cccc([O-])c1 |  | RT-K103 Y181C | PicoGreen / fluorescence | IC50 | <1 µM
Cc1cc(C)cc(S(=O)(=O)c2c(C(N)=O)[nH]c3ccc(Cl)c(F)c23)c1 |  | K103N | RT activity / nucleotide incorporation | Ki | 0.36 µM
CCN1c2ncc(CCOc3ccc(-c4ccc(N)c(C(=O)O)c4)cc3C)cc2C(=O)N(C)c2cccnc21 | IIIB | RT-K103N Y181C | nucleotide incorporation / radiometric | IC50 | <0.05 µM
COC(=O)NS(=O)(=O)c1ccc(NC(=O)CSc2nnnn2-c2ccc(C3CC3)cc2Cl)c(Cl)c1 |  | RT-K103 Y181C | PicoGreen / fluorescence | IC50 | <1 µM
NCCCCNc1nc(Cc2ccccc2)cc(=O)[nH]1 |  | RT-V179D |  | Ki | >1000 µM
CC(C)(C)c1ccc(-n2nnnc2SCC(=O)Nc2ccc(C#CCN3CCCC3)cc2Cl)c(Cl)c1 | WT |  | PicoGreen / fluorescence | IC50 | <1 µM
CCN1c2ncc(CCOc3ccc(C4CC4C(=O)O)c4ccccc34)cc2C(=O)N(C)c2ccc(F)nc21 |  | RT-K103N Y181C | nucleotide incorporation / radiometric | fold resistance | 1–10
CCN1c2ncc(CCOc3ccc(-c4ccc(C(=O)O)cc4)cc3)cc2C(=O)N(C)c2cccnc21 | IIIB | RT-K103N Y181C | nucleotide incorporation / radiometric | fold resistance | >1
CC(C)(C)c1ccc(-n2nnnc2SCC(=O)Nc2ccc(C(=O)Nc3ccc(/C=C/C(=O)O)cc3)cc2Cl)c(Cl)c1 | WT |  | PicoGreen / fluorescence | IC50 | <1 µM
CCN1c2ncc(CCOc3ccc(C(=O)NCc4cc[n+]([O-])cc4)cc3C)cc2C(=O)N(C)c2cccnc21 | IIIB | RT-K103N Y181C | nucleotide incorporation / radiometric | fold resistance | >1
c1ccc2c(c1)CCN(c1nn3c(-c4cscn4)nnc3c3ccccc13)C2 | 98US_MSC5016 |  | RT activity / fluorescence | IC90 | 2.92 µM
CCN1c2ncc(CCOc3ccc(-c4ccncc4)cc3)cc2C(=O)N(C)c2cccnc21 | IIIB | RT-K103N Y181C | nucleotide incorporation / radiometric | fold resistance | >1
CC(C)(C)c1ccc(-n2nnnc2SCC(=O)Nc2ccc(NS(=O)(=O)Cc3ccccc3)cc2Cl)c(Cl)c1 |  | RT-K103 Y181C | PicoGreen / fluorescence | IC50 | <1 µM
CS(=O)(=O)Nc1ccc2c(c1)CN(c1nn3c(C4CC4)nnc3c3ccccc13)CC2 | KER2008 |  | RT activity / fluorescence | IC90 | 1.28 µM
CC(C)(C)c1ccc(-n2nnnc2SCC(=O)Nc2ccc(NC(=O)Cc3c[nH]c4ccccc34)cc2Cl)c(Cl)c1 |  | RT-K103 Y181C | PicoGreen / fluorescence | IC50 | <1 µM
FC(F)(F)c1cccc2c1CCN(c1nn3c(C4CC4)nnc3c3ccccc13)C2 | KER2008 |  | RT activity / fluorescence | IC90 | 62.3 µM
CC(C)(C#Cc1ccc(NC(=O)CSc2nnnn2-c2ccc(C3CC3)cc2Cl)c(Cl)c1)OCCN1CCS(=O)(=O)CC1 |  | RT-K103 Y181C | PicoGreen / fluorescence | IC50 | <1 µM
CCN1c2ncc(CCOc3ccc(-c4cc[n+]([O-])cc4)cc3C)cc2C(=O)N(C)c2cccnc21 | IIIB | RT-K103N Y181C | nucleotide incorporation / radiometric | fold resistance | 1

Again, the opening 4 rows:

SMILES | strain | changes | method | endpoint | result
CCc1cc(NCc2nc3c(C)ccc(C)c3o2)c(=O)[nH]c1C |  | RT-K103N | nucleotide incorporation | fold resistance | 17.7
Cc1cc(C)cc(S(=O)(=O)c2c(C(=O)NCCn3cccc3)[nH]c3ccc(Cl)c(F)c23)c1 |  | WT | RT activity / nucleotide incorporation | Ki | 0.018 µM
CCN1c2ncc(CCOc3ccc(-c4cccc(CC(=O)O)c4)cc3)cc2C(=O)N(C)c2cccnc21 | IIIB | RT-K103N Y181C | nucleotide incorporation / radiometric | fold resistance | >2
C=Cc1cc(N(C)C)nc(SCc2ccc(OC)cc2)n1 |  | RT-K103N | nucleotide incorporation / radiometric | Ki | >400 µM